Test results: publication PMC9228641 (Journal of medicinal chemistry, 2021)
Like-named read-outs stand apart in the source and are kept apart here.

How the values were obtained:
[1] = test system: NS3/4A protease D168A variant; conditions: relative to the parent 18
[2] = test system: HCV replicon A156T variant
[3] = test system: HCV replicon A156T variant; assay: microbe, parasite or virus in culture; conditions: Hepatitis C virus, Huh-7, 96 h, read-out: EC50 against A156T variant

COc1ccc2nc(C)c(O[C@@H]3C[C@H]4C(=O)N[C@]5(C(=O)NS(=O)(=O)C6(C)CC6)C[C@H]5C=CCCCCC[C@H](NC(=O)OC5(C(F)(F)F)CCCC5)C(=O)N4C3)nc2c1 (stereo in doubt) [Compound 24, 1-(Trifluoromethyl)cyclopentyl ((2R,6S,13aS,14aR,16aS,Z)-2-((7-methoxy-3-methylquinoxalin-2-yl)oxy)-14a-(((1-methylcyclopropyl)sulfonyl)carbamoyl)-5,16-dioxo-1,2,3,5,6,7,8,9,10,11,13a,14,14a,15,16,16a-hexadecahydrocyclopropa[e]pyrrolo[1,2-a][1,4]diazacyclopentadecin-6-yl)carbamate]
fold improvement in potency against the D168A variant, biochemical assay [1]: 2 fold | fold improvement in antiviral activity against the A156T variant ([2]; improvement, relative to the parent 18): 8 fold

COc1ccc2nc(O[C@@H]3C[C@H]4C(=O)N[C@]5(C(=O)NS(=O)(=O)C6(C)CC6)C[C@H]5C=CCCCCC[C@H](NC(=O)OCC5(C)CC5(F)F)C(=O)N4C3)c(C(F)(F)F)nc2c1 (stereo in doubt) [Compound 41, (2,2-Difluoro-1-methylcyclopropyl)methyl ((2R,6S,13aS,14aR,16aS,Z)-2-((6-methoxy-3-(trifluoromethyl)quinoxalin-2-yl)oxy)-14a-(((1-methylcyclopropyl)sulfonyl)carbamoyl)-5,16-dioxo-1,2,3,5,6,7,8,9,10,11,13a,14,14a,15,16,16a-hexadecahydrocyclopropa[e]pyrrolo[1,2-a][1,4]diazacyclopentadecin-6-yl)carbamate]
fold loss of potency against the A156T variant ([2]; loss, relative to 36): 3 fold

COc1ccc2nc(O[C@@H]3C[C@H]4C(=O)N[C@]5(C(=O)NS(=O)(=O)C6(C)CC6)C[C@H]5C=CCCCCC[C@H](NC(=O)OC5(C(F)(F)F)CCCC5)C(=O)N4C3)c(C(F)(F)F)nc2c1 (stereo in doubt) [Compound 48, 1-(Trifluoromethyl)cyclopentyl ((2R,6S,13aS,14aR,16aS,Z)-2-((6-methoxy-3-(trifluoromethyl)quinoxalin-2-yl)oxy)-14a-(((1-methylcyclopropyl)sulfonyl)carbamoyl)-5,16-dioxo-1,2,3,5,6,7,8,9,10,11,13a,14,14a,15,16,16a-hexadecahydrocyclopropa[e]pyrrolo[1,2-a][1,4]diazacyclopentadecin-6-yl)carbamate]
fold better potency against the A156T variant ([2]; compared to 42): 3 fold

COc1ccc2nc(O[C@@H]3C[C@H]4C(=O)N[C@]5(C(=O)NS(=O)(=O)C6(C)CC6)C[C@H]5C=CCCCCC[C@H](NC(=O)OC5CCC5)C(=O)N4C3)c(C(F)(F)F)nc2c1 (stereo in doubt) [Compound 44, Cyclobutyl ((2R,6S,13aS,14aR,16aS,Z)-2-((6-methoxy-3-(trifluoromethyl)quinoxalin-2-yl)oxy)-14a-(((1-methylcyclopropyl)sulfonyl)carbamoyl)-5,16-dioxo-1,2,3,5,6,7,8,9,10,11,13a,14,14a,15,16,16a-hexadecahydrocyclopropa[e]pyrrolo[1,2-a][1,4]diazacyclopentadecin-6-yl)carbamate]
fold better potency against the A156T variant ([2]; relative to 5): 4 fold

COc1ccc2nc(C)c(O[C@@H]3C[C@H]4C(=O)N[C@]5(C(=O)NS(=O)(=O)C6(C)CC6)C[C@H]5/C=C/CCCCC[C@H](NC(=O)OC5CCC5)C(=O)N4C3)nc2c1 [Compound 21]
EC50 [3]: < 5 nM

COc1ccc2nc(O[C@@H]3C[C@H]4C(=O)N[C@]5(C(=O)NS(=O)(=O)C6(C)CC6)C[C@H]5C=CCCCCC[C@H](NC(=O)OC5(C)CCC5)C(=O)N4C3)c(C(F)(F)F)nc2c1 (stereo in doubt) [Compound 45, 1-Methylcyclobutyl ((2R,6S,13aS,14aR,16aS,Z)-2-((6-methoxy-3-(trifluoromethyl)quinoxalin-2-yl)oxy)-14a-(((1-methylcyclopropyl)sulfonyl)carbamoyl)-5,16-dioxo-1,2,3,5,6,7,8,9,10,11,13a,14,14a,15,16,16a-hexadecahydrocyclopropa[e]pyrrolo[1,2-a][1,4]diazacyclopentadecin-6-yl)carbamate]
fold better potency against the A156T variant ([2]; relative to 5): 2 fold

COc1ccc2nc(C)c(O[C@@H]3C[C@H]4C(=O)N[C@]5(C(=O)NS(=O)(=O)C6(C)CC6)C[C@H]5/C=C/CCCCC[C@H](NC(=O)OC5(C)CC5)C(=O)N4C3)nc2c1 [Compound 23]
fold less active against the A156T variant ([2]; less active, relative to 22): 3 fold

COc1ccc2nc(C)c(O[C@@H]3C[C@H]4C(=O)N[C@]5(C(=O)NS(=O)(=O)C6(C)CC6)C[C@H]5C=CCCCCC[C@H](NC(=O)OC(C)(C)C(F)(F)F)C(=O)N4C3)nc2c1 (stereo in doubt) [Compound 12, 1,1,1-Trifluoro-2-methylpropan-2-yl ((2R,6S,13aS,14aR,16aS,Z)-2-((7-methoxy-3-methylquinoxalin-2-yl)oxy)-14a-(((1-methylcyclopropyl)sulfonyl)carbamoyl)-5,16-dioxo-1,2,3,5,6,7,8,9,10,11,13a,14,14a,15,16,16a-hexadecahydrocyclopropa[e]pyrrolo[1,2-a][1,4]diazacyclopentadecin-6-yl)carbamate]
EC50 [3]: < 5 nM

COc1ccc2nc(C)c(O[C@@H]3C[C@H]4C(=O)N[C@]5(C(=O)NS(=O)(=O)C6(C)CC6)C[C@H]5C=CCCCCC[C@H](NC(=O)O[C@@H](C)C(F)(F)F)C(=O)N4C3)nc2c1 (stereo in doubt) [Compound 13, (S)-1,1,1-Trifluoropropan-2-yl ((2R,6S,13aS,14aR,16aS,Z)-2-((7-methoxy-3-methylquinoxalin-2-yl)oxy)-14a-(((1-methylcyclopropyl)sulfonyl)carbamoyl)-5,16-dioxo1,2,3,5,6,7,8,9,10,11,13a,14,14a,15,16,16a-hexadecahydrocyclopropa[e]pyrrolo[1,2-a][1,4]diazacyclopentadecin-6-yl)carbamate]
EC50 [3]: < 10 nM

COc1ccc2nc(O[C@@H]3C[C@H]4C(=O)N[C@]5(C(=O)NS(=O)(=O)C6(C)CC6)C[C@H]5C=CCCCCC[C@H](NC(=O)O[C@H](C)C(C)C)C(=O)N4C3)c(C(F)(F)F)nc2c1 (stereo in doubt) [Compound 31, (R)-3-Methylbutan-2-yl ((2R,6S,13aS,14aR,16aS,Z)-2-((6-methoxy-3-(trifluoromethyl)quinoxalin-2-yl)oxy)-14a-(((1-methylcyclopropyl)sulfonyl)carbamoyl)-5,16-dioxo-1,2,3,5,6,7,8,9,10,11,13a,14,14a,15,16,16a-hexadecahydrocyclopropa[e]pyrrolo[1,2-a][1,4]diazacyclopentadecin-6-yl)carbamate]
fold less active against the A156T replicon ([2]; less active, compared to 30): 5 fold
